Anti-infective test results gathered from many reports (values: NIAID ChemDB through PubChem).

Shared fields: growth or infection tests

Zones are inhibition diameters on agar. Blank or dashed fields: not listed here. ECn is the concentration giving n% inhibition of infection, replication or growth. Rows are shuffled and stem from different studies. Inhibition is in % at the dose shown (toxicity tests: loss of growth or viability). MIC50, MIC90 and the like: level of inhibition, or share of isolates inhibited.

smiles	conditions	cells	read-out	tested at	read by	strain	species	value
Nc1nc2c(ncn2COC(CO)CO)c(=O)[nH]1		REF	EC50		plaque count		Rat cytomegalovirus	24 µM
CCCc1cc(=O)oc2c3c(c4c(c12)OC(C)(C)[C@H](O)[C@@H]4O)O[C@H](C)[C@@H](C)[C@@H]3O		CV-1	EC50		cytopathic effect	MO6	Measles virus	5 µg/mL
CCOC(=O)c1c(C)nc(NCCCCNc2ccnc3cc(Cl)ccc23)nc1-c1ccc(F)cc1			MIC99			29/10893	Cryptococcus gattii	4 µg/mL
CCC(C)CN=C(N)c1ccc(N2CCN(c3ccccc3)CC2)cc1			inhibition	0.1 µg/mL			Pneumocystis carinii	0%
O=C(O)P(=O)(O)O		HEL	EC50		cytopathic effect	Clinical isolate VZV-24	Varicella zoster virus	69 µM
O=c1oc2ccc(Br)cc2c(=S)n1-c1cccc(F)c1	21 d		MIC			6509/96	Mycobacterium kansasii	8 µM
C=CCc1ccc(OC)c(OC)c1			MIC90		turbidity	3013	Candida tropicalis	340 µg/mL
O=C1[C@@H](Cc2ccccc2)NC(=S)N1Cc1ccccc1		MT-4	inhibition	10 µg/mL	RT activity		HIV-2	59%
CCC(CC)[C@H](NC(C)=O)[C@@H]1[C@H](O)[C@@H](C(=O)O)C[C@H]1N=C(N)N		MDCK	EC50			Panama/45/90	Influenza B virus	2.3 µM
Nc1ncnc2c1ncn2[C@H]1C[C@H](O)[C@H](O)[C@@H]1O		CV-1	EC50		cytopathic effect		Measles virus	1 µg/mL
O=c1oc2ccc(Br)cc2c(=S)n1-c1ccc(C(F)(F)F)cc1	21 d		MIC			6509/96	Mycobacterium kansasii	16 µM
CSc1nsc(-c2cccs2)c1C#N		L929	EC50		plaque count	Encephalomyocarditis virus	Encephalomyocarditis virus	>6 µM
CCC(CC)[C@H](NC(C)=O)[C@@H]1C[C@@H](C(=O)O)C[C@H]1N=C(N)N		MDCK	EC50			H3N2 A/X-31	Influenza A virus	<0.01 µM
CCCCCN=C(N)c1ccc(N2CCN(c3ccccc3)CC2)cc1			inhibition	50 µg/mL			Pneumocystis carinii	90%
Nc1nc(N)c2ncn(CCOCP(=O)(O)O)c2n1		HEL	EC50		cytopathic effect	Oka penciclovir-resistant/A	Varicella zoster virus	21.9 µM
O=C(NCCc1ccccc1)Nc1nc(C(F)(F)F)cs1		MT-4	inhibition	10 µg/mL	RT activity		HIV-2	98%
COC(=O)[C@H]1[C@@H]2C[C@@H](O[C@@H]3O[C@H](C)[C@@H](O)[C@H](N)[C@@H]3O)/C=C/C=C/C=C/C=C/C=C/C=C/C=C/[C@H](C)[C@@H](O)[C@H](C)[C@H](C)OC(=O)C[C@H](O)C[C@H](O)[C@@H](O)CC[C@H](O)C[C@H](O)C[C@](O)(C[C@@H]1O)O2		HFF	inhibition	3.2 µg/mL	plaque count	TYPE 4	Adenovirus	18%
CCC(C)n1ncn(-c2ccc(N3CCN(c4ccc(OC[C@H]5CO[C@](Cn6cncn6)(c6ccc(Cl)cc6Cl)O5)cc4)CC3)cc2)c1=O			inhibition	8 µg/mL	broth dilution	AF293	Aspergillus fumigatus	99.76%
O=c1[nH]c(=O)n([C@H]2C[C@H](O)[C@@H](CO)O2)cc1/C=C\Cl		PRK	EC50		cytopathic effect	Kentucky (type 1)	Equine herpesvirus 1	>200 µg/mL
CCc1ccc(C(=O)Nc2cn(C(C)=O)c3ccccc23)cc1		Human foreskin fibroblasts	MIC90				Toxoplasma gondii	>0.125 µM
CSc1nsc(-c2ccc(OCCCOc3ccc([N+](=O)[O-])cc3)cc2)c1C#N		HELA-OHIO	EC50		cytopathic effect	Serotype 85 (group B)	Rhinovirus	>1 µM
Cc1nc(NC(=O)NCCc2ccccc2)sc1C		MT-4	inhibition	100 µg/mL	RT activity		HIV-2	93%
CS(=O)(=O)c1ccc(C(=O)NC(=O)c2ccccc2O)cc1		Human foreskin fibroblasts	MIC50				Toxoplasma gondii	>0.25 µM
Oc1ccccc1N=Cc1ccc(O)c(O)c1O			MIC99			23/10993	Cryptococcus gattii	11.3 µg/mL
O=C(NC(=S)Nc1ccc([N+](=O)[O-])cc1)c1ccccc1COc1ccc(Cl)cc1		Human foreskin fibroblasts (HFF)	EC50			RH beta-gal	Toxoplasma gondii	85 µM
CCCCCCCN=C(N)c1ccc(N2CCN(c3ccccc3)CC2)cc1			inhibition	50 µg/mL			Pneumocystis carinii	92%
OC[C@H]1O[C@@H](n2c(Br)nc3cc(Cl)c(Cl)cc32)[C@H](O)[C@@H]1O		MRC-5	EC50		hybridisation	2916RAE (LEU397ARG)	Human cytomegalovirus	0.48 µM
Nc1ncnc2c1ncn2[C@@H]1CC[C@@H](O)[C@H]1O		CV-1	EC50		neutral red	X-1108	Measles virus	>10 µg/mL
O=c1[nH]c(=O)n([C@@H]2O[C@H](CO)[C@@H](O)[C@@H]2O)cc1/C=C/Br		HEL	EC50		cytopathic effect	Oka CF1742-resistant	Varicella zoster virus	>57 µM
O=C(NC(=O)c1ccccc1O)c1ccc2c(c1)OCO2		Human foreskin fibroblasts	MIC50				Toxoplasma gondii	>0.25 µM
N#Cc1c(-c2ccccc2)s[nH]c1=S		HEP-2	EC50		plaque count	TYPE 2	Adenovirus	>60 µM
O=C(NCCc1ccccc1)Nc1nc2ccccc2s1		MT-4	inhibition	100 µg/mL	cytopathic effect / XTT		HIV-2	50%
Cc1ccc2c(c1)C(C=NNC(=O)N1c3ccccc3C=Cc3ccccc31)C(c1ccccc1)=N2			zone	500 µg/mL	agar diffusion	MTCC-3567	Aspergillus oryzae	12 mm
COc1ccc(OCc2ccccc2C(=O)NC(=S)Nc2cccc(OC)c2)cc1		Human foreskin fibroblasts (HFF)	EC50			RH beta-gal	Toxoplasma gondii	127 µM
CC(C)Oc1ccc2cc(C(=O)NC(=O)c3ccccc3O)ccc2c1		Human foreskin fibroblasts	MIC90				Toxoplasma gondii	>0.25 µM
Nc1ncnc2c1ncn2[C@@H]1C[C@H](O)[C@@H](O)[C@H]1O		CV-1	EC50		neutral red		Measles virus	<1 µg/mL
Nc1nc2c(ncn2COC(CO)CO)c(=O)[nH]1		HEL	inhibition	1 µM			Cytomegalovirus	81%
CCOC(=O)c1c(C)nc(NCCCCNc2ccnc3cc(Cl)ccc23)nc1-c1ccccc1			MIC99			ATCC 32608	Cryptococcus gattii	16 µg/mL
COc1ccc(OCc2ccccc2C(=O)NC(=S)Nc2ccccc2C)cc1		Human foreskin fibroblasts (HFF)	EC50			RH beta-gal	Toxoplasma gondii	43 µM
O=C(NCCc1ccccc1)Nc1nc2ccc(F)cc2s1		MT-4	inhibition	1 µg/mL	RT activity		HIV-2	77%
CCOC(=O)c1c(C)nc(NCCCNc2ccnc3cc(Cl)ccc23)nc1-c1ccccc1			MIC99			135L/03	Cryptococcus gattii	8 µg/mL
S=c1oc2ccc(Br)cc2c(=S)n1-c1ccc(Cl)cc1	21 d		MIC			6509/96	Mycobacterium kansasii	4 µM
CSc1nsc(-c2ccc(OCCOc3ccc(C#N)cc3)cc2)c1C#N		HELA-OHIO	EC50		cytopathic effect	Serotype 2 (group B)	Rhinovirus	>2 µM
Nc1ncnc2c1ncn2[C@@H]1C=C[C@@H](O)[C@H]1O		CV-1	EC50		neutral red	CC	Measles virus	0.05 µg/mL
O=C1NC(=S)N[C@@H]1Cc1ccc(O)cc1		MT-4	inhibition	1 µg/mL	cytopathic effect / XTT		HIV-1	0%
CC(C)N=C(N)/N=C(\N)NOCCCOc1cc(Cl)c(Cl)cc1Cl			MIC			3028	Mycobacterium avium complex	32 µg/mL
CC(C)(O)c1cn(-c2cccc3ccccc23)nn1			inhibition	2048 µg/mL	broth dilution	URM 4387	Candida albicans	0%
O=C(NNC(=O)c1ccccc1O)c1ccc2ccccc2c1		Human foreskin fibroblasts	MIC50				Toxoplasma gondii	>0.25 µM
CCCc1cc(=O)oc2cc(OS(=O)(=O)c3ccc(C)cc3)cc(OS(=O)(=O)c3ccc(C)cc3)c12		CV-1	EC50		cytopathic effect	NS2	Measles virus	1 µg/mL
Nc1ncnc2c1ncn2[C@@H]1C[C@H](N)[C@@H](O)[C@H]1O		CV-1	EC50		cytopathic effect	Chicago	Measles virus	<0.1 µg/mL
CCC(CC)[C@H](NC(C)=O)[C@@H]1[C@H](O)[C@@H](C(=O)O)C[C@H]1N=C(N)N		MDCK	EC50		visual reading	H1N1 A/Beijing/262/95	Influenza A virus	0.17 µM
O=C1[C@@H](Cc2ccccc2)NC(=S)N1c1ccccc1		MT-4	inhibition	0.1 µg/mL	cytopathic effect / XTT		HIV-2	24%
Nc1ncnc2c1ncn2C[C@@H](CO)OCP(=O)(O)O		HEL	EC50		cytopathic effect	Oka PMEA-resistant	Varicella zoster virus	0.083 µM
CSc1nsc(-c2ccc3ccccc3c2)c1C#N		HEP-2	EC50		plaque count	TYPE 2	Adenovirus	>20 µM
Cc1cc(CCCCCOc2c(Cl)cc(C3=NCCO3)cc2Cl)on1		VERO	EC50		plaque count	NANCY (CVB3)	Enterovirus	>2.5 µg/mL
CC(C)(O)c1cn(-c2ccc(Cl)cc2)nn1			MIC		broth dilution	URM 3621	Candida parapsilosis	64 µg/mL
O=c1oc2ccc(Br)cc2c(=S)n1-c1cccc(Cl)c1	21 d		MIC			6509/96	Mycobacterium kansasii	4 µM
CCOC(=O)c1ccc(OCCOc2ccc(-c3snc(SC)c3C#N)cc2)cc1		HELA-OHIO	EC50		cytopathic effect	Serotype 86 (group A)	Rhinovirus	>2 µM
O=C(NN1C(=O)CSC1C1C(c2ccccc2)=Nc2ccc(Cl)cc21)N1c2ccccc2C=Cc2ccccc21			zone	500 µg/mL	agar diffusion	MTCC-3567	Aspergillus oryzae	12 mm
CO[C@H]([C@H](C)[C@H](/C=C/c1ccccc1)OC)[C@@H](C)/C=C/C(C)=C/C(=O)N/C=C\C/C=C\C(=O)NCC(=O)O			MIC				Saccharomyces cerevisiae	12.5 µg/mL
CC(C)(O)c1cn(-c2ccc([N+](=O)[O-])cc2)nn1			inhibition	2048 µg/mL	broth dilution	URM 3719	Candida albicans	0%
CCCCCCCCCCCCCCCCCCCCCCOCC(C)(COCCCCCCCCCCCCCCCCCCCCCC)CO[C@]1(C(=O)O)C[C@H](OS(=O)(=O)O)[C@@H](NC(C)=O)[C@H]([C@H](OS(=O)(=O)O)[C@@H](COS(=O)(=O)O)OS(=O)(=O)O)O1		MA-104	EC50		plaque count	WA (serotype 1)	Rotavirus	2.1 µg/mL
CCCc1cc(=O)oc2cc(OS(=O)(=O)c3ccc(C)cc3)cc(O)c12		CV-1	EC50		cytopathic effect	NS2	Measles virus	0.5 µg/mL
COc1ccc(NC(=S)NC(=O)c2ccccc2COc2ccc(F)cc2)cc1		Human foreskin fibroblasts (HFF)	EC50			RH beta-gal	Toxoplasma gondii	87 µM
Cc1ccc(-n2cc(C(C)(C)O)nn2)cc1C			inhibition	2048 µg/mL	broth dilution	URM 4607	Candida parapsilosis	0%
CCC(CC)O[C@@H]1C=C(C(=O)O)C[C@H](N)[C@H]1NC(C)=O		MDCK	EC50		plaque count	Isolate G72	Influenza B virus	≤0.01 µg/mL
COc1ccc2oc(=S)n(-c3ccc(C(F)(F)F)cc3)c(=S)c2c1	14 d		MIC			6509/96	Mycobacterium kansasii	32 µM
CSc1nsc(-c2cccc3ccccc23)c1C#N		HEP-2	EC50		plaque count	TYPE B1	Coxsackie virus	>4 µM
COc1cccc(NC(=S)NC(=O)c2ccccc2COc2ccc(Cl)cc2)c1		Human foreskin fibroblasts (HFF)	EC50			RH beta-gal	Toxoplasma gondii	97 µM
CC(C)N=C(N)c1ccc(N2CCN(c3ccccc3)CC2)cc1			inhibition	0.1 µg/mL			Pneumocystis carinii	0%
Oc1ccccc1N=Cc1ccccc1			MIC99			VM-MCMMPI	Cryptococcus neoformans	5.7 µg/mL
COc1ccc(OCc2ccccc2C(=O)NC(=S)Nc2ccccc2Cl)cc1		Human foreskin fibroblasts (HFF)	EC50			RH beta-gal	Toxoplasma gondii	36 µM
Cn1cc(C(=O)NCc2ccc(Cl)cc2)c(=O)c2cc(CN3CCOCC3)ccc21		HFF	inhibition	1.8 µM	plaque count	RA varicella isolate	Varicella zoster virus	90%
Nc1nc2c(ncn2CCC(CO)CO)c(=O)[nH]1		HEL	EC50		cytopathic effect	Clinical isolate VZV-28	Varicella zoster virus	4.35 µM
Nc1nc2c(ncn2COC(CO)CO)c(=O)[nH]1		MRC-5	EC50		hybridisation	C8910	Human cytomegalovirus	0.7 µM
O=C(NC(=S)Nc1ccc(Br)cc1)c1ccccc1COc1ccc(Cl)cc1		Human foreskin fibroblasts (HFF)	EC50			RH beta-gal	Toxoplasma gondii	14 µM
COc1nc(=O)n([C@H]2C[C@H](O)[C@@H](CO)O2)cc1/C=C/Cl		PRK	EC50		cytopathic effect	Kentucky (type 1)	Equine herpesvirus 1	>200 µg/mL
CCCc1cc(=O)oc2cc(OC(=O)C(C)(C)C)c3c(c12)OC(C)(C)C=C3		CV-1	EC50		cytopathic effect	X-1108	Measles virus	3.6 µg/mL
CSc1nsc(-c2ccc(OCCCCOc3ccccc3)cc2)c1C#N		HELA-OHIO	EC50		cytopathic effect	Serotype 15 (group B)	Rhinovirus	>20 µM
CN1C(=O)[C@@H](Cc2ccccc2)NC1=S		MT-4	inhibition	1 µg/mL	RT activity		HIV-1	13%
Cn1cc(C(=O)NCc2ccc(Cl)cc2)c(=O)c2cc(CN3CCOCC3)ccc21		VERO	EC50		plaque count		Simian varicella-zoster virus	2.7 µM
OC[C@H]1O[C@@H](n2c(Cl)nc3cc(Cl)c(Cl)cc32)[C@H](O)[C@@H]1O			EC95		virus yield	TOWNE	Human cytomegalovirus	1.1 µM
COc1nsc(-c2ccccc2)c1C#N		HEP-2	EC50		plaque count	TYPE 2	Adenovirus	>25 µM

Repeating the final 4 entries:

smiles	conditions	cells	read-out	tested at	read by	strain	species	value
CN1C(=O)[C@@H](Cc2ccccc2)NC1=S		MT-4	inhibition	1 µg/mL	RT activity		HIV-1	13%
Cn1cc(C(=O)NCc2ccc(Cl)cc2)c(=O)c2cc(CN3CCOCC3)ccc21		VERO	EC50		plaque count		Simian varicella-zoster virus	2.7 µM
OC[C@H]1O[C@@H](n2c(Cl)nc3cc(Cl)c(Cl)cc32)[C@H](O)[C@@H]1O			EC95		virus yield	TOWNE	Human cytomegalovirus	1.1 µM
COc1nsc(-c2ccccc2)c1C#N		HEP-2	EC50		plaque count	TYPE 2	Adenovirus	>25 µM